Assay results published in US20220322803A1 (KONKUK UNIVERSITY INDUSTRIAL COOPERATION CORP, priority 2019, published 2022).

Assay: Cysteic acid generation by ATR-FTIR analysis of perm hair
Conditions: perm hair washed once

With `OO` [hydrogen peroxide] the “Peak height of 1040 cm^-1 (cysteic acid), normalized to amide III 1242 cm^-1” value was 0.8867.
